Results published in ChEMBL document CHEMBL3091350, “Synthesis and evaluation of the antimalarial, anticancer, and caspase 3 activities of tetraoxane dimers” (Bioorg Med Chem, 2013).

Tests used:
[1] = test system: Plasmodium falciparum; test: Antimalarial activity against chloroquine-resistant Plasmodium falciparum K1 assessed as parasite growth inhibition after 48 hrs by SYBR green-1 dye-based fluorescence assay
[2] = Therapeutic index, ratio of IC50 for human KB cells to IC50 for chloroquine-resistant Plasmodium falciparum K1; type: cell-based
[3] = test system: Plasmodium falciparum; test: Antimalarial activity against chloroquine-sensitive Plasmodium falciparum 3D7 assessed as parasite growth inhibition after 48 hrs by SYBR green-1 dye-based fluorescence assay

Compound | IC50 [1] | Ratio IC50 [2] | IC50 [3]
CC1(CCC(=O)NCCNC(=O)CCC2(C)OOC3(CCCCC3)OO2)OOC2(CCCCC2)OO1 (stereo unspecified) | 308 nM | 138 | 938 nM
CC1(CCC(=O)NCCCNC(=O)CCC2(C)OOC3(CCCCC3)OO2)OOC2(CCCCC2)OO1 (stereo unspecified) | – | – | 76.5 nM
CC1(CCC(=O)Nc2cccc(NC(=O)CCC3(C)OOC4(CCCCC4)OO3)c2)OOC2(CCCCC2)OO1 (stereo unspecified) | 102 nM | 75.4 | 305 nM
CC1(CCC(=O)NCCCCNC(=O)CCC2(C)OOC3(CCCCC3)OO2)OOC2(CCCCC2)OO1 (stereo unspecified) | 267 nM | 153 | 908 nM
CC1(CCC(=O)Nc2ccc(NC(=O)CCC3(C)OOC4(CCCCC4)OO3)cc2)OOC2(CCCCC2)OO1 (stereo unspecified) | – | – | 40.9 nM
